Anti-infective test results gathered from many reports (values: NIAID ChemDB through PubChem).

All rows: growth or infection tests; organism: HIV-1; endpoint: fold resistance

Blank or dashed fields: not listed here. Lines come from different laboratories, so protocols vary. Fold resistance: result on the changed form divided by that on wild type. Two numbers with a dash give a range or band.

{"SMILES": "Cc1cc(S(N)(=O)=O)ccc1NC(=O)COc1ccc(Cl)cc1C(=O)c1cc(F)cc(C(F)(F)F)c1", "mutations": "RT-P236L", "strain or isolate": "HXB2", "cell line": "HeLa + HELA CD4+", "method": "β-galactosidase", "result": "~1"}
{"SMILES": "CCN1c2ncc(CCOc3cccc4c3CNC(=O)N4)cc2C(=O)N(C)c2cccnc21", "mutations": "RT-K103N Y181C", "cell line": "C8166", "method": "p24", "result": "1"}
{"SMILES": "CN(C)C1=C(C#N)/C(=C2/C(C#N)=C(N(C)C)N(c3ccc([N+](=O)[O-])cc3)c3c2n(C)c2ccccc32)c2c(c3ccccc3n2C)N1c1ccc([N+](=O)[O-])cc1", "mutations": "RT-D67N K70R T215Y K219Q", "strain or isolate": "6R AZT-resistant (RT D67N K70R T215Y K219Q)", "cell line": "CEM + CEM-SS", "method": "cytopathic effect / XTT", "result": "14.6"}
{"SMILES": "Cc1cc2[nH]cnc2cc1NC(=O)COc1ccc(Cl)cc1C(=O)c1cc(F)cc(C(F)(F)F)c1", "mutations": "RT-G190E", "strain or isolate": "HXB2", "cell line": "HeLa + HELA CD4+", "method": "β-galactosidase", "result": "~1"}
{"SMILES": "CCN1c2ncc(CCOc3ccc(-c4ccc(CC(=O)O)cc4)cc3C)cc2C(=O)N(C)c2cccnc21", "mutations": "RT-K103N Y181C", "cell line": "C8166", "method": "p24", "result": "1"}
{"SMILES": "CCCCCCCCCC[N+](C)(C)CCCNCc1c(O)cc2c(c1O)-c1cc(ccc1O)[C@H]1NC(=O)[C@@H]3NC(=O)C4NC(=O)[C@@H](Cc5ccc(c(Cl)c5)Oc5cc3cc(c5O)Oc3ccc(cc3Cl)[C@@H](O)[C@H](NC1=O)C(=O)N[C@@H]2C(=O)O)NC(=O)[C@H](N)c1ccc(O)c(c1)Oc1cc(O)cc4c1", "mutations": "RT-L100I", "cell line": "CEM", "method": "syncytia", "result": "1.89"}
{"SMILES": "CCCc1c(SC2CCCC2)c2cc(F)ccc2[nH]c1=O", "mutations": "RT-Y181C", "strain or isolate": "Nevirapine-resistant (RT Y181C)", "cell line": "MT-4", "result": "5.84"}
{"SMILES": "CCN1c2ncc(CCOc3ccc(-c4cc(C(=O)O)c(C)o4)cc3)cc2C(=O)N(C)c2cccnc21", "mutations": "RT-K103N Y181C", "cell line": "C8166", "method": "p24", "result": ">1"}
{"SMILES": "O=C1Nc2ccc(Cl)cc2[C@@](C#CC2CC2)(C(F)(F)F)N1", "mutations": "RT-G190S", "result": "28.9"}
{"SMILES": "CC(C)c1c(OC#CC2CC2)c2cc(Cl)ccc2[nH]c1=O", "mutations": "RT-103N Y181C", "cell line": "MT-4", "result": "40"}
{"SMILES": "Nc1ncnc2c1ncn2[C@H]1C=C[C@@H](OCP(=O)(O)O)O1", "mutations": "RT-K65R", "cell line": "MT-2", "method": "cytopathic effect", "result": "2.9"}
{"SMILES": "CCCCCCCCCC[N+](C)(C)CCCNCc1c(O)cc2c(c1O)-c1cc(ccc1O)[C@H]1NC(=O)[C@@H]3NC(=O)C4NC(=O)[C@@H](Cc5ccc(c(Cl)c5)Oc5cc3cc(c5O)Oc3ccc(cc3Cl)[C@@H](O)[C@H](NC1=O)C(=O)N[C@@H]2C(=O)O)NC(=O)[C@H](N)c1ccc(O)c(c1)Oc1cc(O)cc4c1", "mutations": "RT-Y181C", "cell line": "CEM", "method": "syncytia", "result": "3.04"}
{"SMILES": "CCN1c2ncc(CCOc3ccc(S(=O)(=O)NCC(=O)O)cc3C)cc2C(=O)N(C)c2cccnc21", "mutations": "RT-K103N Y181C", "cell line": "C8166", "method": "p24", "result": "1"}
{"SMILES": "CCN1C(=O)c2c(O)c(=O)c(C(=O)NCc3ccc(F)cc3F)cn2[C@H]2CCOC[C@H]21", "mutations": "E92Q/N155H", "cell line": "MT-2", "method": "luminescence", "result": "2.1"}
{"SMILES": "Cc1cc(/C=C2\\C(=O)Nc3ccc(S(=O)(=O)N(CC(C)C)C[C@@H](O)[C@H](Cc4ccccc4)NC(=O)O[C@H]4CO[C@H]5OCC[C@H]54)cc32)cc(C)c1O", "mutations": "PR-L10F M46I M71V I84V", "strain or isolate": "F", "cell line": "MT-4", "method": "cytopathic effect / MTT", "result": "2"}
{"SMILES": "CCN1c2ncc(CCOc3cccc4c3CNC(=O)N4CC(=O)O)cc2C(=O)N(C)c2cccnc21", "mutations": "RT-K103N Y181C", "cell line": "C8166", "method": "p24", "result": "1"}
{"SMILES": "O=C1Nc2ccc(Cl)cc2[C@@](/C=C/C2CC2)(C(F)(F)F)N1", "mutations": "RT-G190S", "result": "60"}
{"SMILES": "CCCc1c(OC2CCCC2)c2cc(C)ccc2[nH]c1=O", "mutations": "RT-Y181C", "strain or isolate": "Nevirapine-resistant (RT Y181C)", "cell line": "MT-4", "result": "5.81"}
{"SMILES": "CCN1c2ncc(CCOc3ccc(NC(=O)CC(C)(C)C(=O)O)cc3C)cc2C(=O)N(C)c2cccnc21", "mutations": "RT-K103N Y181C", "cell line": "C8166", "method": "p24", "result": ">1"}
{"SMILES": "CC(C)=CCN1CC(C)Cn2c(=S)[nH]c3cccc1c32", "mutations": "RT-K103N Y181C", "strain or isolate": "A17", "cell line": "CEM(SS) + CEM-SS", "method": "cytopathic effect / XTT", "result": ">52.4"}
{"SMILES": "CCN1c2ncc(CCOc3ccc(-c4ccc(O)cc4)cc3C)cc2C(=O)N(C)c2cccnc21", "mutations": "RT-K103N Y181C", "cell line": "C8166", "method": "p24", "result": "1"}
{"SMILES": "CCCc1c(OC2CCCC2)c2cc(Cl)ccc2[nH]c1=O", "mutations": "RT-Y181C", "strain or isolate": "Nevirapine-resistant (RT Y181C)", "cell line": "MT-4", "result": "17"}
{"SMILES": "CC(C)CN(C[C@@H](O)[C@H](Cc1ccccc1)NC(=O)O[C@H]1CO[C@H]2OCC[C@H]21)S(=O)(=O)c1ccc2c(c1)/C(=C/c1ccc(-c3ccccn3)cc1)C(=O)N2", "mutations": "PR-L10F M46I M71V I84V", "strain or isolate": "F", "cell line": "MT-4", "method": "cytopathic effect / MTT", "result": "6.3"}
{"SMILES": "CCCCCCCCCCCCCCCC(=O)Nc1ccn([C@H]2CC[C@@H](COP(=O)(O)O[C@H]3C[C@H](n4cc(C)c(=O)[nH]c4=O)O[C@@H]3CO)O2)c(=O)n1", "mutations": "Calanolide-resistant (RT T139I)", "strain or isolate": "Calo-resistant (RT T139I)", "cell line": "CEM + CEM-SS", "method": "cytopathic effect / XTT", "result": "3.25"}
{"SMILES": "Cc1ccccc1S(=O)(=O)c1c(C(=O)NCCO)[nH]c2ccc(Cl)cc12", "mutations": "RT-Y181C", "cell line": "MT-4", "method": "cytopathic effect / MTT", "result": "38.7"}
{"SMILES": "CCN1C(=O)c2c(O)c(=O)c(C(=O)NCc3c(F)cc(F)cc3F)cn2[C@H]2CCOC[C@H]21", "mutations": "E138K/Q148K", "cell line": "MT-2", "method": "luminescence", "result": "5.9"}
{"SMILES": "Cc1cc(C)cc(C(=O)c2cc(Cl)ccc2OCC(=O)Nc2ccc(S(N)(=O)=O)cc2C)c1", "mutations": "RT-V106I Y181C", "strain or isolate": "HXB2", "cell line": "HeLa + HELA CD4+", "method": "β-galactosidase", "result": "~1"}
{"SMILES": "Cc1cc(C)cc(Sc2c(C(=O)NCCO)[nH]c3ccc(Cl)cc23)c1", "mutations": "RT-K103N Y181C", "cell line": "MT-4", "method": "cytopathic effect / MTT", "result": "100"}
{"SMILES": "Cc1cc(C#N)cc(C(=O)c2ccccc2OCC(=O)Nc2ccc(S(N)(=O)=O)cc2C)c1", "mutations": "RT-L100I K103N", "cell line": "HeLa MAGI + HeLa", "method": "β-galactosidase", "result": "10"}
{"SMILES": "C=C(C)[C@@H]1CC[C@]2(C(=O)NCCCCCCCC(=O)N[C@@H](CC(C)C)[C@@H](O)CC(=O)O)CC[C@]3(C)[C@H](CC[C@@H]4[C@@]5(C)CC[C@H](O)C(C)(C)[C@@H]5CC[C@]43C)[C@@H]12", "mutations": "GP41-K77R", "strain or isolate": "LAI", "cell line": "HeLa P4 + HeLa", "method": "syncytia", "result": "~1"}
{"SMILES": "Cc1cc(C)cc(S(=O)(=O)c2c(C(=O)/C=C/C(N)=O)[nH]c3ccc(Cl)cc23)c1", "mutations": "RT-K103R", "cell line": "C8166", "method": "cytopathic effect / MTT", "result": ">1666"}
{"SMILES": "NC(=O)c1[nH]c2ccc(Cl)cc2c1S(=O)(=O)c1ccccc1", "mutations": "RT-Y181C", "cell line": "MT-4", "method": "cytopathic effect / MTT", "result": "15"}
{"SMILES": "CCN1C(=O)c2c(O)c(=O)c(C(=O)NCc3ccc(F)c(Cl)c3F)cn2[C@H]2CCOC[C@H]21", "mutations": "N155H/Q148R", "cell line": "MT-2", "method": "luminescence", "result": "2.8"}
{"SMILES": "O=C(NNCCO)c1[nH]c2ccc(Cl)cc2c1S(=O)(=O)c1ccccc1", "mutations": "RT-K103N Y181C", "cell line": "MT-4", "method": "cytopathic effect / MTT", "result": ">2000"}
{"SMILES": "CC(C)Cc1c(OCC2CCC2)c2cnccc2[nH]c1=O", "mutations": "RT-Y181C", "strain or isolate": "Nevirapine-resistant (RT Y181C)", "cell line": "MT-4", "result": "4.71"}
{"SMILES": "CCN1c2ncc(CCOc3ccc(-c4ccc[n+]([O-])c4C)cc3C)cc2C(=O)N(C)c2cccnc21", "mutations": "RT-K103N Y181C", "cell line": "C8166", "method": "p24", "result": "1"}
{"SMILES": "COc1ccnc2[nH]cc(C(=O)C(=O)N3CCN(C(=O)c4ccccc4)C[C@H]3C)c12", "mutations": "GP120-M426L", "strain or isolate": "LAI(GP120-M426L) Recombinant", "cell line": "MT-2", "method": "RT activity", "result": "115.5"}
{"SMILES": "Cc1cc(C)cc(Sc2c(C(=O)NNCCO)[nH]c3ccc(Cl)cc23)c1", "mutations": "RT-Y181C", "cell line": "MT-4", "method": "cytopathic effect / MTT", "result": "33.3"}
{"SMILES": "CCCc1c(OCC2CCCCC2)c2cc(Cl)ccc2[nH]c1=O", "mutations": "RT-Y181C", "strain or isolate": "Nevirapine-resistant (RT Y181C)", "cell line": "MT-4", "result": "0.626"}
{"SMILES": "CCN1c2ncc(CCOc3cccc4c3CNC4=O)cc2C(=O)N(C)c2cccnc21", "mutations": "RT-K103N Y181C", "cell line": "C8166", "method": "p24", "result": "1"}
{"SMILES": "Cc1cc(OCCCS(N)(=O)=O)ccc1NC(=O)COc1ccc(Cl)cc1C(=O)c1cc(F)cc(C(F)(F)F)c1", "mutations": "RT-K103N V108I", "strain or isolate": "HXB2", "cell line": "HeLa + HELA CD4+", "method": "β-galactosidase", "result": "~1"}
{"SMILES": "N#Cc1cc(Cl)cc(Oc2c(Br)ccc(CC(=O)Nc3ccc(S(N)(=O)=O)cc3Cl)c2F)c1", "mutations": "V106A/F227C", "cell line": "MT-4", "result": "133"}
{"SMILES": "CCCc1cc(=O)oc2c3c(c4c(c12)OC(C)(C)CC4)O[C@H](C)[C@@H](C)C3=O", "mutations": "RT-K101E", "method": "cytopathic effect / XTT", "result": "18"}
{"SMILES": "CCN1c2ncc(CCOc3cccc4c3CNC4=O)cc2C(=O)Nc2c(C)ccnc21", "mutations": "RT-K103N Y181C", "cell line": "C8166", "method": "p24", "result": "1"}
{"SMILES": "Cc1ccc(S(=O)(=O)c2c(C(=O)NNCCO)[nH]c3ccc(Cl)cc23)cc1", "mutations": "RT-Y181C", "cell line": "MT-4", "method": "cytopathic effect / MTT", "result": "5"}
{"SMILES": "CCc1c(C(=O)c2cc(C)cc(C)c2)n(Cc2ccncc2)c(=O)[nH]c1=O", "mutations": "RT-Y181C", "strain or isolate": "NNRTI-resistant (RT Y181C)", "cell line": "MT-4", "result": "1.43–5.86"}
{"SMILES": "CCCc1c(OC2CCCC2)c2ccccc2[nH]c1=O", "mutations": "RT-Y181C", "strain or isolate": "Nevirapine-resistant (RT Y181C)", "cell line": "MT-4", "result": "12"}

Again, the opening 3 rows:

SMILES	mutations	strain or isolate	cell line	method	result
Cc1cc(S(N)(=O)=O)ccc1NC(=O)COc1ccc(Cl)cc1C(=O)c1cc(F)cc(C(F)(F)F)c1	RT-P236L	HXB2	HeLa + HELA CD4+	β-galactosidase	~1
CCN1c2ncc(CCOc3cccc4c3CNC(=O)N4)cc2C(=O)N(C)c2cccnc21	RT-K103N Y181C		C8166	p24	1
CN(C)C1=C(C#N)/C(=C2/C(C#N)=C(N(C)C)N(c3ccc([N+](=O)[O-])cc3)c3c2n(C)c2ccccc32)c2c(c3ccccc3n2C)N1c1ccc([N+](=O)[O-])cc1	RT-D67N K70R T215Y K219Q	6R AZT-resistant (RT D67N K70R T215Y K219Q)	CEM + CEM-SS	cytopathic effect / XTT	14.6